# Zika virus NS2B-NS3: effect of single substitutions on growth in cell culture

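Mutant virus pools were grown in human Huh-7.5 cells. Deep sequencing gave the change in frequency of each mutant relative to wild type, averaged over three replicate libraries (two for positions 207-308). The study looked for pockets that tolerate few changes, as a guide for inhibitor design.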

Chain scanned (Zika virus MR766; NS2B from position 2 to 131, then the start of NS3):
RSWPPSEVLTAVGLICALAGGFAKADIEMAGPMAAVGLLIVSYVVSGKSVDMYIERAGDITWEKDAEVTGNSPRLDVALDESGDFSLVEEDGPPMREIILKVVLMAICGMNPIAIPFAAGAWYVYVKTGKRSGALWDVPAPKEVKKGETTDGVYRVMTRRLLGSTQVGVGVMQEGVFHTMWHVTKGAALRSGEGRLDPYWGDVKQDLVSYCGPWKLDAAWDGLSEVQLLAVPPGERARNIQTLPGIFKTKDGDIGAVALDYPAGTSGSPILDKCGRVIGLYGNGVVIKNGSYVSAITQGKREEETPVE

Scale: log2 effect, wild type = 0; the lower, the more harmful to the virus. Each entry names the wild-type residue, its position and the residue put in its place. This list holds changes to valine only. Position 1 still belongs to NS2A. In the paper, -1 or higher counts as tolerated.

substitution,log2 growth effect
M52V,-4.75
Y53V,-2.11
I54V,-1.07
E55V,-1.48
R56V,-5.38
A57V,-0.06
G58V,-2.76
D59V,-4.90
I60V,-2.53
T61V,-0.67
W62V,-7.02
E63V,-1.75
K64V,0.27
D65V,-6.87
A66V,-2.33
E67V,-1.55
T69V,-7.10
G70V,-4.54
N71V,-3.61
S72V,-6.85
P73V,-1.50
R74V,-0.96
L75V,-1.27
D76V,-0.76
A78V,-0.38
L79V,-3.79
D80V,-7.07
E81V,-7.08
S82V,-7.48
G83V,-4.83
D84V,-7.07
F85V,-5.91
S86V,-3.13
L87V,-5.91
E89V,-2.47
E90V,-1.80
D91V,-1.40
G92V,-4.69
P93V,-2.20
P94V,-2.30
M95V,-1.35
R96V,-4.88
E97V,-2.81
I98V,-0.84
I99V,-0.22
L100V,-0.76
K101V,-7.27
L104V,-5.41
M105V,-7.17
A106V,-0.61
I107V,-0.41
C108V,-4.86
G109V,-6.46
M110V,-0.38
N111V,-3.17
P112V,-5.83
I113V,-0.58
A114V,-1.60
I115V,-0.40
P116V,-6.37
F117V,-1.20
A118V,-4.74
A119V,-0.81
G120V,-1.06
A121V,-0.80
W122V,-6.08
Y123V,-2.57
Y125V,-2.98
K127V,-6.82
T128V,-6.61
G129V,-6.92
K130V,-6.20
R131V,-6.44
S132V,-6.57
G133V,-6.67
A134V,-3.46
L135V,-7.37
W136V,-7.43
D137V,-7.20
P139V,-5.96
A140V,-6.77
P141V,-5.50
K142V,-2.19
E143V,0.61
K145V,-0.51
K146V,-1.49
G147V,-2.51
E148V,-1.32
T149V,-1.47
T150V,-3.49
D151V,-5.04
G152V,-3.81
Y154V,-6.11
R155V,-6.21
M157V,-1.01
T158V,-1.73
R159V,-6.22
R160V,-6.09
L161V,-2.50
L162V,-3.52
G163V,-6.77
S164V,-0.52
T165V,0.66
Q166V,-6.35
G168V,-2.83
G170V,-4.80
M172V,-3.66
Q173V,-4.56
E174V,-6.88
G175V,-3.77
F177V,-6.51
H178V,-5.93
T179V,-6.68
M180V,-5.68
W181V,-5.71
H182V,-4.82

The opening 14 entries, copied out:

| substitution | log2 growth effect |
|---|---|
| M52V | -4.75 |
| Y53V | -2.11 |
| I54V | -1.07 |
| E55V | -1.48 |
| R56V | -5.38 |
| A57V | -0.06 |
| G58V | -2.76 |
| D59V | -4.90 |
| I60V | -2.53 |
| T61V | -0.67 |
| W62V | -7.02 |
| E63V | -1.75 |
| K64V | 0.27 |
| D65V | -6.87 |

The region was split into three libraries (1-103, 104-206, 207-308). Six mutants with high scores were retested singly and none clearly outgrew wild type, so positive values are not proof of better growth.

Source: Ni et al. 2025 (doi:10.1038/s41467-025-63602-z), supplementary data.